Experimental data as given in publication PMC11559043.
One block for each binder: values may come before it.

Columns and labels:
[1] = target: T1, PA28γ, endogenous in Huh7OK1 cells (human (endogenous in Huh7OK1)), P61289; assay: native gel or EMSA; conditions: remark: other sources report otherwise
T1 chain: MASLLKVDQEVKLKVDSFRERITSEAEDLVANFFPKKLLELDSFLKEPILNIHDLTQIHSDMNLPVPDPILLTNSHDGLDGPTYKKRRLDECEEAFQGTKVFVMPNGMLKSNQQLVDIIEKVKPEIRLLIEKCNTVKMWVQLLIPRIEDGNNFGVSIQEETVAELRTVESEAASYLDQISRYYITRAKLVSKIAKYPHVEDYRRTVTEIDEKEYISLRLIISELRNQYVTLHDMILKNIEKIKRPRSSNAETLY

[2] = target: T2, PA28γ expressed from pEF PA28γ, P61289; assay: native gel or EMSA; conditions: remark: other sources report otherwise
T2 chain: T1 chain

stoichiometry N [1]: 7
B1: PA28γ, endogenous in Huh7OK1 cells, P61289 1-254 (natural protein)
chain: T1 chain

stoichiometry N [2]: 7
B2: PA28γ expressed from pEF PA28γ, P61289 1-254 (natural protein)
chain: T1 chain
